## Library screen at single concentrations

Mtb cholesterol medium: 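Phenotypic screen: M. tuberculosis growth, cholesterol and DPPC medium, 4 days; the read-out is not stated. Concentration: 500 µM. Higher reads as more growth inhibition (inferred: compounds with an IC50 in retests scored well above the rest). Size under these conditions: about 18,000 compounds, about 900 of them at 50% or above in at least one test.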
Mtb glucose medium: 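Growth of Mycobacterium tuberculosis over 3 days (7H9 medium with glucose and tyloxapol); the read-out is not stated. Concentration: 500 µM. The record gives no direction; compounds that gave an IC50 in retests scored well above the rest, so higher reads as more growth inhibition. About 18,000 compounds were tested under these conditions; 7.9% (about 1,400) showed 50% or more at least once.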

The filed quantity is “Percent Effect” (%). How 0% and 100% were set is not recorded. Most values in the screen are low, and negative values occur. The entries come from a sample that favours strong results. A dash means the value is not listed here; it may have been measured.

For Cc1noc(C(O)c2ccccc2)n1 (stereo not shown) the result was Mtb cholesterol medium: 8.6%.
For CC(=O)c1ccc(NCc2ncc(C)o2)nc1 the result was Mtb glucose medium: -5.879%.
For COC1(CO)CCOC1 (stereo not shown) the result was Mtb glucose medium: 9.944%.
For OCCC1CCCCN1Cc1cccnc1 (stereo not shown) the result was Mtb glucose medium: -51.92%.
For CCOC(=O)CSCN1C(=O)c2ccccc2C1=O the result was Mtb cholesterol medium: -1.024%; Mtb glucose medium: -7.695%.
For Nc1ncnc(N2CCC(CO)CC2)c1Cl the result was Mtb glucose medium: 4.005%.
For NS(=O)(=O)CC1CCNCC1 the result was Mtb glucose medium: -6.367%.
For CCNC(=O)CSc1nccn1C1CC1 the result was Mtb cholesterol medium: -22.34%.
For CC1=CCN(C(=O)c2ccsc2)CC1 the result was Mtb cholesterol medium: 56.71%.
For OC1CCCN(CCCNC2CCSCC2)C1 (stereo not shown) the result was Mtb glucose medium: 13.31%.
For NC(=O)COc1ccccc1OCC(N)=O the result was Mtb cholesterol medium: -3.755%.
For COc1ccc(CN)nc1 the result was Mtb cholesterol medium: 5.946%; Mtb glucose medium: 17.41%.
For CCC(NC(=O)NCC(=O)N1CCCC1)c1nccs1 (stereo not shown) the result was Mtb glucose medium: -10.37%.
For O=S1(=O)NCCN1c1ccccc1 the result was Mtb glucose medium: 10.72%.
For CCOCCC(=O)Nc1ccc2c(c1)C(=O)N(C)C2=O the result was Mtb glucose medium: 1.029%.
For COCc1nc2ccccc2n1CC(=O)NCC(C)C the result was Mtb glucose medium: -2.002%.
For O=C(NC1CNC1)C1CCC1 the result was Mtb glucose medium: -2.356%.
For CCN(Cc1ccoc1)C(=O)Nc1cccnc1OC the result was Mtb glucose medium: 37.52%.
For O=C(Nc1nncs1)NC1CCCC1 the result was Mtb cholesterol medium: 11.65%.
For CC(C)n1cnnc1CNC(=O)Nc1ccccc1 the result was Mtb glucose medium: 4.77%.
For Cn1nccc1C(=O)N1CCN(c2ncccn2)CC1 the result was Mtb glucose medium: 13.34%.
For Clc1cc2c(c(CN3CCNCC3)c1)OCC2 the result was Mtb cholesterol medium: 4.568%.
For O=C(CC(O)c1cccc(F)c1)N1CCC[C@H]1CO (stereo partly shown) the result was Mtb glucose medium: 5.062%.
For Cn1cc(C2CCCCN2)cn1 (stereo not shown) the result was Mtb glucose medium: -5.351%.
For CN(C)CCNC(=O)c1cc(F)cc(F)c1 the result was Mtb glucose medium: 5.362%.
For CNC(=O)NC(=O)CSc1nnc(-c2ccccc2)o1 the result was Mtb cholesterol medium: -10.16%; Mtb glucose medium: -5.164%.
For CC(C)CN1CCC(NCCSc2nnnn2C)CC1 the result was Mtb cholesterol medium: 4.069%; Mtb glucose medium: 4.744%.
For Cc1ccc(OCCN2CCOCC2)cc1 the result was Mtb glucose medium: 17.89%.
For CN(CCn1cccn1)CC(=O)Nc1ccc(Br)cn1 the result was Mtb cholesterol medium: 32%; Mtb glucose medium: 45.99%.
For CCNCc1cc(OC)c(OCC(N)=O)c(OC)c1 the result was Mtb cholesterol medium: 1.936%.
For COCCCNCc1cccc(OC)c1OC the result was Mtb cholesterol medium: 10.76%.
For CN(C(=O)c1cccnc1)C1CCc2ccccc21 (stereo not shown) the result was Mtb cholesterol medium: 17.07%.
For CC(C)COCC(C)NC(=O)CCCn1cccn1 (stereo not shown) the result was Mtb glucose medium: 40.25%.
For OCC(O)c1cc2n(n1)CCN(Cc1ccoc1)C2 (stereo not shown) the result was Mtb glucose medium: -9.073%.
For CN(C)Cc1ccc(C(=O)NCC2(C)COC2)cc1 the result was Mtb cholesterol medium: 10.33%.
For Cc1ccc(CCN)cc1 the result was Mtb cholesterol medium: 10.49%.
For NCCNC(=O)c1nc(Cn2cc(Br)cn2)no1 the result was Mtb glucose medium: 23.41%.
For Cn1cc(C#N)cc1C(=O)NCC1CNCCO1 (stereo not shown) the result was Mtb glucose medium: 6.627%.

The last 4 entries again:

structure	Mtb cholesterol medium	Mtb glucose medium
CN(C)Cc1ccc(C(=O)NCC2(C)COC2)cc1	10.33	-
Cc1ccc(CCN)cc1	10.49	-
NCCNC(=O)c1nc(Cn2cc(Br)cn2)no1	-	23.41
Cn1cc(C#N)cc1C(=O)NCC1CNCCO1 (stereo not shown)	-	6.627

Measurements from “University of Dundee, Small-Polar-MMV Screening Library” (2021), ChEMBL document CHEMBL3988442.